Pooled drug test results. Numbers come from NIAID ChemDB, via PubChem.

MIC bound: limit read from a one-dose screen.

smiles,test,strain,target,tested at,organism,read by,endpoint,result
Fc1ccc(N2CCCCC2)c(NC(=S)c2ccncc2)c1,host protein,-,MSSK1,10 µM,-,kinase activity,inhibition,13%
CC(=O)Oc1c2c(c(CC=C(C)C)c3c1C(=O)C1=CC4CC5C(C)(C)OC(C/C=C(\C)C(=O)O)(C4=O)C15O3)OC(C)(CCC=C(C)C)C=C2,culture,H37Rv,-,12.5 µg/mL,Mycobacterium tuberculosis,BACTEC,inhibition,52%
c1ccc(N=C(Nc2ccccc2)Nc2ccccc2)cc1,culture,H37Rv,-,-,Mycobacterium tuberculosis,-,MIC,100 µg/mL
CC(C)(CO)NCCNCc1ccccc1,culture,-,-,-,Mycobacterium tuberculosis,-,MIC,50 µM
CN(C)c1ccc2cc3c(cc2c1)Oc1ccccc1N3.CN(C)c1ccc2cc3c(cc2c1)Oc1ccccc1N3.[Cl][Zn][Cl],culture,H37Rv,-,-,Mycobacterium tuberculosis,BACTEC,MIC bound,>12.5 µg/mL
CCCCCCCCCCCNCCNCCCOCC,culture,-,-,-,Mycobacterium tuberculosis,-,MIC,25 µM
CCS(=O)(=O)CC(O)CS(=O)(=O)CC,culture,H37Rv,-,-,Mycobacterium tuberculosis,-,MIC,>100 µg/mL
CC(C)=CCC/C(C)=C/CNCCN1CCCC2CCCCC21,culture,-,-,-,Mycobacterium tuberculosis,-,MIC,25 µM
O=C(O)c1ccc(Cl)s1,culture,H37Rv,-,-,Mycobacterium tuberculosis,-,MIC,100 µg/mL
CCC1CCCCN1CCNC/C=C(\C)CCC=C(C)C,culture,-,-,-,Mycobacterium tuberculosis,-,MIC,12.5 µM
O=c1oc2ccccc2c(O)c1C(c1ccc(Cl)cc1)c1c(O)c2ccccc2oc1=O,culture,H37Rv,-,-,Mycobacterium tuberculosis,BACTEC,MIC bound,>12.5 µg/mL
CCCCC(CC)CN1CN(CC(CC)CCCC)CC(C)(NCCNCc2ccccc2Sc2ccccc2CO)C1,culture,-,-,-,Mycobacterium tuberculosis,-,MIC,25 µM
CCOC(=O)c1cc(C)n(-c2ccc(-c3ccc(-n4c(C)cc(C(=O)OCC)c4C)c(C)c3)cc2C)c1C,culture,H37Rv,-,-,Mycobacterium tuberculosis,-,MIC,>100 µg/mL
CCCCCCCCCCCNCCNCCc1ccccc1Cl,culture,-,-,-,Mycobacterium tuberculosis,-,MIC,25 µM
CCCN(C(C)=O)c1ccccc1,culture,H37Rv,-,-,Mycobacterium tuberculosis,-,MIC,>100 µg/mL
CCOc1ccccc1CNCCNCc1ccccc1Cl,culture,-,-,-,Mycobacterium tuberculosis,-,MIC,50 µM
Cc1ccc(C)c(N2C(=O)C(=O)C(c3nc4ccccc4o3)/C(=N/NC(=O)c3ccccc3O)C2=O)c1,culture,H37Rv,-,12.5 µg/mL,Mycobacterium tuberculosis,BACTEC,inhibition,0%
Cc1ccc([N+](=O)[O-])cc1N,culture,H37Rv,-,-,Mycobacterium tuberculosis,-,MIC,>100 µg/mL
CS(=O)(=O)OCC1OC(OC2(COS(C)(=O)=O)OC(COS(C)(=O)=O)C(O)C2O)C(OS(C)(=O)=O)C(O)C1O,culture,H37Rv,-,-,Mycobacterium tuberculosis,BACTEC,MIC bound,>12.5 µg/mL
CC1CC(C)CN(CCNCCC(c2ccccc2)c2ccccc2)C1,culture,-,-,-,Mycobacterium tuberculosis,-,MIC,25 µM
CC(C)(O)C(Cl)(Cl)Cl,culture,H37Rv,-,-,Mycobacterium tuberculosis,-,MIC,>100 µg/mL
CC1CCCCN1.CC1CCCCN1C(=S)S,culture,KM-R,-,-,Mycobacterium tuberculosis,-,MIC,1.6 µg/mL
O=Cc1cc(Br)ccc1O,culture,H37Rv,-,-,Mycobacterium tuberculosis,-,MIC,>100 µg/mL
CCc1c(C)[nH]c(-c2csc(N)n2)c1C.Cl,culture,H37Rv,-,-,Mycobacterium tuberculosis,BACTEC,MIC bound,>12.5 µg/mL
Cc1nn(-c2ccccc2N)nc1C,culture,H37Rv,-,-,Mycobacterium tuberculosis,-,MIC,100 µg/mL
Cc1cc(C(N)=O)c(C(N)=O)c(Cl)n1,culture,H37Rv,-,-,Mycobacterium tuberculosis,BACTEC,MIC,≥12.5 µg/mL
C=CCc1ccc(O)c(OC)c1,culture,3167,-,-,Candida tropicalis,turbidity,MIC90,475 µg/mL
C[CH2][Sn]1([CH2]C)[O]C2C(O)OC(CO)C(O)C2[O]1,culture,H37Rv,-,12.5 µg/mL,Mycobacterium tuberculosis,BACTEC,inhibition,91%
Clc1ccccc1CCNCCNC1CCCCCCC1,culture,-,-,-,Mycobacterium tuberculosis,-,MIC,50 µM
COC(=O)n1c(=O)nc2c3c(ncn21)Oc1c(c(-c2ccccc2)nn1-c1ccccc1)C3c1ccc(Cl)cc1,culture,H37Rv,-,-,Mycobacterium tuberculosis,resazurin,MIC bound,>6.25 µg/mL
COc1ccnc(N)n1.Cl,culture,H37Rv,-,-,Mycobacterium tuberculosis,-,MIC,>100 µg/mL
COc1cc2c(c3c1c(=O)c1cc(F)ccc1n3C)C=CC(C)(C)O2,culture,H37Rv,-,-,Mycobacterium tuberculosis,BACTEC,MIC,≥12.5 µg/mL
NC(=O)NC(Cc1c[nH]c2ccccc12)C(=O)O,culture,H37Rv,-,-,Mycobacterium tuberculosis,-,MIC,>100 µg/mL

Repeating the first 3 entries:

smiles	test	strain	target	tested at	organism	read by	endpoint	result
Fc1ccc(N2CCCCC2)c(NC(=S)c2ccncc2)c1	host protein	-	MSSK1	10 µM	-	kinase activity	inhibition	13%
CC(=O)Oc1c2c(c(CC=C(C)C)c3c1C(=O)C1=CC4CC5C(C)(C)OC(C/C=C(\C)C(=O)O)(C4=O)C15O3)OC(C)(CCC=C(C)C)C=C2	culture	H37Rv	-	12.5 µg/mL	Mycobacterium tuberculosis	BACTEC	inhibition	52%
c1ccc(N=C(Nc2ccccc2)Nc2ccccc2)cc1	culture	H37Rv	-	-	Mycobacterium tuberculosis	-	MIC	100 µg/mL

Inhibition is in % at the dose shown (toxicity tests: loss of growth or viability). Lines come from different laboratories, so protocols vary. An empty or dashed field is not shown. MIC50, MIC90 and the like: level of inhibition, or share of isolates inhibited.